From US20050176758A1, “NOVEL COMPOUNDS AND METHODS FOR SYNTHESIS AND THERAPY” (priority 1995, published 2005) come the findings set out here.

The chains behind the UniProt entries cited, without tags or fusion partners.
UniProt P03468, whole entry: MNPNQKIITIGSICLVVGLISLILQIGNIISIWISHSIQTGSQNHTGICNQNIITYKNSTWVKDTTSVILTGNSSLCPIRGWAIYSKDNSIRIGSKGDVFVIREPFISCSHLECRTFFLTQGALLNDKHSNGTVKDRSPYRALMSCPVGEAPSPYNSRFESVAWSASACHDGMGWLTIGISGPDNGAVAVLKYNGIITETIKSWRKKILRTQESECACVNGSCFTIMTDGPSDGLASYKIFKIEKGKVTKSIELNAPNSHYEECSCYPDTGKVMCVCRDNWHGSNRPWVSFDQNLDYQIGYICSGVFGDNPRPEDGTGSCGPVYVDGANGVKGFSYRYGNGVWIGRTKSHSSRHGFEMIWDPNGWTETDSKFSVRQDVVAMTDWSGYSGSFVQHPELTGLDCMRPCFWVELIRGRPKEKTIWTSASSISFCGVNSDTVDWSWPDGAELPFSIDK

In the test the target is neuraminidase (Influenza A virus, UniProt P03468).

Some results are limits rather than exact numbers.

One may read the IC50 as the concentration needed to halve the response being measured. `CC[C@@H](C)O[C@@H]1C=C(C(=O)O)C[C@H](NC(=N)N)[C@H]1NC(C)=O` returned an IC50 below 1 µM.

With `CC[C@H](C)O[C@@H]1C=C(C(=O)O)C[C@H](NC(=N)N)[C@H]1NC(C)=O`, the IC50 was below 1 µM.
